Laboratory results reported in patent US20260250362A1 (MAPP BIOPHARMACEUTICAL, published 2026).
Changes are numbered by the printed parent chain.

B1: ADI-65533 (antibody, V domains shown)
VH: QVQLVESGGGVVQPGRSLRLSCAASGFTFSSYAMHWVRQAPGKGLEWVAVTWFDVSKKDYADSVKGRFTISRDNSKNTLYLQMNSLRAEDTAVYYCARNLIRYSVSYFPVHGMDVWGQGTTVTVSS
VL: DIVMTQSPLSLPVTPGEPASISCRSSQSLLHTYGYNVLDWYLQRPGQSPQLLISLGSYRASGVPDRFSGSGSGTDFTLKISRVEAEDVGVYYCMQALHPFTFGGGTKVEIK
B2: ADI-65534 (antibody, V domains shown)
VH: B1 VH with T28E
VL: B1 VL

Molecular target: recombinant ANDV Gn^H/Gc heterodimer (Andes virus (ANDV))
Test: BLI, koff at pH 5.5

Binder | fold reduction in dissociation at acidic pH against ADI-42898 [fold]
B1 | ~10
B2 | ~10
